Holding throughout (format): in vivo, mice
Data set [1] relates to DX3puroβ6 (αvβ6-positive) and DX3puro (αvβ6-negative) xenografts. Briefly: Biodistribution in the DX3puro/DX3puroβ6 xenograft model. In outline: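 Each male athymic nude mouse (nu/nu) carried both xenografts: 3 × 10^6 DX3puroβ6 (αvβ6-transduced) and 3 × 10^6 DX3puro (control) melanoma cells in serum-free DMEM, injected s.c. on opposite shoulder flanks. Studies began at a tumor diameter of ∼0.5 cm. Radiotracers (∼15 to 30 μCi) were given in saline/PBS, n = 3 per time point. Uptake was expressed as decay-corrected %ID/g, mean ± SD.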

A further data set relates to BxPC-3 xenograft. As to the kind of experiment: Biodistribution in the BxPC-3 xenograft model. The gist of the method: (§1)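 Male athymic nude mice (nu/nu) received 1.5 × 10^6 BxPC-3 cells s.c. in the left shoulder region, in 1:1 serum-free DMEM/MatriGel. Studies began at a tumor diameter of ∼0.5 cm. Radiotracers (∼15 to 30 μCi) were given in saline/PBS, n = 3 per time point. Tumor and tissue radioactivity was expressed as decay-corrected %ID/g, mean ± SD. Significance was tested by two-tailed Student's t-test.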

The nature of data set [2]: Biodistribution in the BxPC-3 xenograft model. The conditions noted are these: male, athymic nude (nu/nu), mouse, BxPC-3 tumor, iv, total radioactivity. In outline:
as §1

The next data set concerns BxPC-3 tumor. Briefly: MicroPET imaging of the BxPC-3 xenograft model. The conditions noted are these: mean ± SD, n = 3 animals.

As a reminder, the tissue uptake is the share of the injected amount in each gram of the tissue.

Each structure is given as a SMILES string. Several values for one entry are separate records, joined by “and”; a condition that tells them apart may be missing. Equal entries are not always repeated.

As for `CC(C)C[C@H](NC(=O)[C@H](CC(=O)O)NC(=O)CNC(=O)[C@H](CCCNC(=N)N)NC(=O)[C@H](CC(C)C)NC(=O)[C@H](CC(N)=O)NC(=O)[C@@H]1CCCN1C(=O)[C@@H](NC(=O)[C@H](C)NC(=O)[C@H](CC(N)=O)NC(=O)CCOCCOCCOCCOCCOCCOCCOCCOCCOCCOCCOCCOCCOCCOCCOCCOCCOCCOCCOCCOCCOCCOCCOCCOCCOCCOCCOCCOCCNC(=O)c1ccc(F)cc1)C(C)C)C(=O)N[C@@H](CCC(N)=O)C(=O)N[C@H](C(=O)N[C@@H](CC(C)C)C(=O)N[C@@H](C)C(=O)N[C@@H](CCC(N)=O)C(=O)N[C@@H](CCCCN)C(=O)N[C@H](C(=O)N[C@@H](C)C(=O)N[C@@H](CCCNC(=N)N)C(=O)N[C@H](C(N)=O)[C@@H](C)O)C(C)C)C(C)C` [[^18F]FBA-PEG28-A20FMDV2], in data set [1], the “maximal αvβ6-positive/-negative xenograft uptake ratio” value is given as 8.0 :1. In addition, in the data set on BxPC-3 xenograft (1 h), the BxPC-3/blood ratio was 11.8 :1, the BxPC-3/muscle ratio was 2.5 :1 and the BxPC-3/pancreas ratio is listed as 4.2 :1. Further, in the data set with BxPC-3 xenograft (4 h), the BxPC-3/blood ratio is > 47 :1 and 47.9 :1; the BxPC-3/muscle ratio is 3.6 :1; the BxPC-3/pancreas ratio is > 23 :1 and 23.6 :1. The “retention in BxPC-3 tumors relative to non-PEGylated [^18F]FBA-A20FMDV2” value with BxPC-3 xenograft (BxPC-3 model) turned out to be 12 fold. Besides, in data set [2], the tissue uptake at 1 h is 1.85 ± 0.44 %ID/g and the tissue uptake at 4 h is 1.48 ± 0.04 %ID/g. In the data set with BxPC-3 tumor (15min), the “SUVmax in BxPC-3 tumor” value is 1.07 ± 0.29. The “SUVmax in BxPC-3 tumor” value in the data set on BxPC-3 tumor (1 h p.i.) worked out at 0.91 ± 0.25. For the same compound, in the data set with BxPC-3 tumor (4 h), the “SUVmax in BxPC-3 tumor” value is 0.63 ± 0.12.

The values above are taken from article PMC2711989 (Cancer research, 2009).
